Consider three sequences from paper PMC13251380.

What all share (assay): EMSA
Series [1] relates to LuxTVc (6xHis-LuxT) (Vibrio cholerae C6706). The conditions noted are these: pH 8, […], 20 min room temperature, recombinant protein, protein details: N-term 6xHis (pET15b).
Series [2] concerns LuxTVh (6xHis-LuxT) (Vibrio harveyi). Particulars: pH 8, […], 20 min room temperature, recombinant protein, protein details: 6xHis.
Series [3] deals with LuxTVc delta8-AA N-term (Vibrio cholerae C6706). The conditions noted are these: affinity similar to LuxTVc, pH 8, […], 20 min room temperature, recombinant protein, protein details: N-term 6xHis (pET15b).

For at least one entry, the source does not settle the construct or the ends of the probe. For some assays here: At least one verdict rests on a figure or table, not on a statement of the authors.

With “CGTTATTGGCTTGTTGCTTCGCGTATTCAAGAGGATCTTTGTTGACTCAAACAATTATGCATAAAGGGGGGATTTCCCCCCTTTTTCATTTGTATCCTGTTCGGTAAAGTACAAACCGAAATGACTAAAAAAATTTCATTCATTATTAACGGCCAGGTTGAAATCTTTCCCGAAAGTGATGATTTAGTGCAATCCATTAA (double strand) [PvqmRVm LuxT site]”, the binding result in series [1] is reported as “binds”.

For “TTATGTCGGTTTCCGAGTATTGCGCGAGCTGTAATGTTGACTCAAACAATTATGCATAAAGGGGGGATTTCCCCCCTTTTTCATTTGTACCGCGTTCGGTAAAGTACAAACCAGAGCATGAGTTGCATGACTGATGCTTGGTATCAATATGATACCTCTG (double strand) [PvqmRVc -111 to +49]”, the binding result in series [1] is recorded as “binds”.

With “TCAGCCCTCTTTTTTTATATATTTAATCTTGCCCTCATAATCAGTACGCTGTATTATCAATTACAACCGAACTACGTACTGTTTAGTTGTCGTCACGATAATAAAATTTCATGAGGTTGCTTGTGTCTAG (double strand) [PswrZVh -110 to +20]”, the binding result in series [1] (two band shifts), in series [2] and in series [3] was “binds” in each case.
